Drawing on patent US20110189692A1, this text covers inhibition of binding by 20% plasma for one substance.

Bounds are passed on as bounds.

For the assay, the target named is soluble / monomeric Aβ42 (endogenous in normal human plasma or CSF, or synthetic monomers 1-42) (human) (UniProt P05067). The assay is described as follows: PSR1 beads with 25 ng/ml monomeric Aβ42 in increasing concentrations of plasma.

“PSR1 (peptoid reagent XIIb attached to magnetic beads) (designed binder)” showed an inhibition of binding by 20% plasma above 90%.
